PubChem BioAssay AID1259414 – Drosophila RNAi Screening Center, 2018
The deposit covers about 24,000 reagents; shown is a random part of those with a known target gene and a result. Over the whole deposit, about 1,210 (5%) were called active. 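Inactive calls also include excluded dsRNAs with several or no targets, genes unexpressed in JW18, and well A1, regardless of score.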

Aim: 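Fly genes that alter Wolbachia amount inside host cells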 (primary screen)
Cell system: Drosophila JW18 cells infected with Wolbachia
Knock-down reagent: long dsRNA against Drosophila genes, 0.25 µg dsRNA per well of a 384-well plate
Duration: 5 days
Treatment: cells persistently infected with Wolbachia before knock-down; no added drug
Read-out: 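Imaged fluorescence in situ signal for Wolbachia 23S rRNA per DAPI-counted host cell, given as a robust z-score within each plate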
Direction: Wolbachia per cell robust z: higher = more Wolbachia per host cell than the plate typical
Active means: 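Active if absolute robust z reaches 1.5 in two or more of three replicates, leaving out multi- or no-target dsRNAs, genes unexpressed in JW18 and A1 wells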

{"gene":"CG32816","dsRNA":"DRSC17337","Wolbachia per cell robust z, rep 1":1.52,"Wolbachia per cell robust z, rep 2":0.261,"Wolbachia per cell robust z, rep 3":0.692,"call":"inactive"}
{"gene":"CG31633","dsRNA":"DRSC02275","Wolbachia per cell robust z, rep 1":0.699,"Wolbachia per cell robust z, rep 2":-6.45,"Wolbachia per cell robust z, rep 3":0.498,"call":"inactive"}
{"gene":"CG31633","dsRNA":"DRSC27022","Wolbachia per cell robust z, rep 1":-2.58,"Wolbachia per cell robust z, rep 2":-0.00202,"Wolbachia per cell robust z, rep 3":-1.25,"call":"inactive"}
{"gene":"ppk12 (pickpocket 12)","dsRNA":"DRSC04086","Wolbachia per cell robust z, rep 1":-3.56,"Wolbachia per cell robust z, rep 2":-5.42,"Wolbachia per cell robust z, rep 3":0.109,"call":"inactive"}
{"gene":"IP3K1 (Inositol 1,4,5-triphosphate kinase 1)","dsRNA":"DRSC02734","Wolbachia per cell robust z, rep 1":-1.86,"Wolbachia per cell robust z, rep 2":-0.319,"Wolbachia per cell robust z, rep 3":-4.67,"call":"active"}
{"gene":"CG13186","dsRNA":"DRSC06311","Wolbachia per cell robust z, rep 1":-1.36,"Wolbachia per cell robust z, rep 2":-0.975,"Wolbachia per cell robust z, rep 3":-3.03,"call":"inactive"}
{"gene":"Not10 (CCR4-NOT transcription complex subunit 10)","dsRNA":"DRSC14129","Wolbachia per cell robust z, rep 1":-2.3,"Wolbachia per cell robust z, rep 2":0.0969,"Wolbachia per cell robust z, rep 3":-0.396,"call":"inactive"}
{"gene":"Nulp1 (Nuclear localized protein 1)","dsRNA":"DRSC09677","Wolbachia per cell robust z, rep 1":0.384,"Wolbachia per cell robust z, rep 2":-0.918,"Wolbachia per cell robust z, rep 3":0.932,"call":"inactive"}
{"gene":"CG43386","dsRNA":"DRSC17980","Wolbachia per cell robust z, rep 1":-0.788,"Wolbachia per cell robust z, rep 2":-1.57,"Wolbachia per cell robust z, rep 3":0.525,"call":"inactive"}
{"gene":"Prp16 (pre-mRNA processing factor 16)","dsRNA":"DRSC19538","Wolbachia per cell robust z, rep 1":-0.392,"Wolbachia per cell robust z, rep 2":-0.0263,"Wolbachia per cell robust z, rep 3":0.77,"call":"inactive"}
{"gene":"Prp16 (pre-mRNA processing factor 16)","dsRNA":"DRSC19542","Wolbachia per cell robust z, rep 1":0.204,"Wolbachia per cell robust z, rep 2":-0.178,"Wolbachia per cell robust z, rep 3":0.00388,"call":"inactive"}
{"gene":"Prp16 (pre-mRNA processing factor 16)","dsRNA":"DRSC40741","Wolbachia per cell robust z, rep 1":0.872,"Wolbachia per cell robust z, rep 2":0.116,"Wolbachia per cell robust z, rep 3":0.501,"call":"inactive"}
